{"sequences": {"note": "Amino acid sequences for entries named in this document (tags omitted).", "UniProt P00374, whole entry": "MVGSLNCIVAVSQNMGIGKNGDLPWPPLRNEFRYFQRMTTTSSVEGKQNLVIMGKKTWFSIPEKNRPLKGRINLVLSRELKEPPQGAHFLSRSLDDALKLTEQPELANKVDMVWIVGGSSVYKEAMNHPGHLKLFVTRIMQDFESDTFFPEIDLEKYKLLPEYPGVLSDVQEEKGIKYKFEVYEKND", "UniProt P16184, whole entry": "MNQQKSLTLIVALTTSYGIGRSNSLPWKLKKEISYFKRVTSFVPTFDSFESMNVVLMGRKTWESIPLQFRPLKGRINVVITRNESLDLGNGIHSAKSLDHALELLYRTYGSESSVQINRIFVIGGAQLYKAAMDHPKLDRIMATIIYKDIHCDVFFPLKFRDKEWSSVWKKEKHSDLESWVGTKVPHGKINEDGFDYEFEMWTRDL"}, "source": "patent EP0504290B1", "about": "“INHIBITORS OF PNEUMOCYSTIS CARINII DIHYDROFOLATE REDUCTASE” (CHIRON CORPORATION, priority 1989, dated 1991)", "key": {"[1]": {"biological_target": "recombinant human DHFR (Homo sapiens, UniProt P00374)", "experiment": "Inhibition of recombinant human DHFR activity by substituted phenyl triazines at 25 µM DHF", "type": "biochemical", "settings": "read-out: Human DHFR IC50, 2.0 nM DHFR, sensitivity limit 5000, tested form: not stated"}, "[2]": {"biological_target": "Pneumocystis carinii DHFR (Pneumocystis carinii, UniProt P16184)", "settings": "tested form: not stated"}}, "data": [{"smiles": "CCCCCc1ccc(OCc2cccc(N3C(N)=NC(N)=NC3(C)C)c2)cc1", "values": [{"measurement": "IC50", "setting": "[1]", "value": 1570, "unit": "nM"}, {"measurement": "Selectivity, Ki (human)/Ki(Pc)", "setting": "[2]; ratio of human DHFR Ki to P. carinii DHFR Ki", "value": 2.2}, {"measurement": "IC50", "setting": "[2]; read-out: Pneumocystis carinii DHFR IC50, 0.42 nM DHFR, 25μM DHF, sensitivity limit 5000", "value": 1200, "unit": "nM"}]}]}
